Read-outs that look alike come from different tables or passages of the source.
Legend:
[1] = biological target: NeoCoV RBD-hFc-twin-strep; experiment: flow cytometry on cells
[2] = biological target: ACE2 from Pipistrellus pipistrellus (Ppip ACE2), Pipistrellus pipistrellus
[3] = biological target: Rsin ACE2-N55T, Rhinolophus sinicus
[4] = biological target: ACE2 from Pipistrellus pipistrellus (Ppip ACE2), Pipistrellus pipistrellus; remark: listed apart in the source
[5] = biological target: Rsin ACE2-N55T, Rhinolophus sinicus; remark: listed apart in the source
[6] = biological target: Raeg ACE2-ABCD (Rousettus aegyptiacus)
NeoCoV RBD-hFc = experiment: BLI; details: ACE2 ectodomain at 500nM, 250nM, 125nM, 62.5nM, 31.25nM, 15.625nM
PDF-2180 RBD-hFc [7] = experiment: BLI; details: ACE2 ectodomain at 500nM, 250nM, 125nM, 62.5nM, 31.25nM, 15.625nM; R2=0.9987
[8] = biological target: NeoCoV RBD-hFc-twin-strep
PDF-2180 RBD-hFc [9] = experiment: BLI (SSG: steady-state graph affinity determination); details: ACE2 ectodomain at 500nM, 250nM, 125nM, 62.5nM, 31.25nM, 15.625nM; SSG R2=0.9691

Csim ACE2 N305E
response ([1]; parent: 19.03 ± 1.19): 73.2%

Nasi ACE2 K305E
response ([1]; parent: 6.37 ± 1.02): 36.8%

NeoCoV RBD-hFc
koff [2]: 0.000104 s⁻¹
koff [3]: 0.000812 s⁻¹
Kd [4]: 1.78 nM
Kd [5]: 20.4 nM

PDF-2180 RBD-hFc
Kd [6]: 0.694 nM
koff [6]: 1.1e-05 s⁻¹

Pcin ACE2 Q305E
response ([1]; parent: 0.35 ± 0.07): 9.69%

Raeg ACE2 I55T; K305E; E329N; K330N; D337S; N338D; D339G; Q340R
response ([1]; parent: 0): 94.9%

Raeg ACE2 ectodomain, WT I55T; K305E; E329N; K330N; D337S; N338D; D339G; Q340R
koff (NeoCoV RBD-hFc; R2=0.9978): 0.000138 S-1
kon (NeoCoV RBD-hFc; R2=0.9978): 5880 M/s
koff (PDF-2180 RBD-hFc [7]): 1.1e-05 S-1

Rsin ACE2 N55T
response [8]: 99.7%

Rsin ACE2 ectodomain, WT N55T
Kd (NeoCoV RBD-hFc; R2=0.9995): 20.4 nM
koff (NeoCoV RBD-hFc; R2=0.9995): 0.000812 S-1
kon (NeoCoV RBD-hFc; R2=0.9995): 39900 M/s
Kd (PDF-2180 RBD-hFc [9]): 14.1 nM

Sape ACE2 Q305E
response ([1]; parent: 0.04 ± 0.01): 7.42%

Sbol ACE2 R305E
response ([1]; parent: 0.06 ± 0.01): 0.29%

Sscr ACE2 I305E
response ([1]; parent: 52.17 ± 0.68): 65.9%
